For experiment [1], the system named is PBMCs of BLV-infected cattle. Nature of the experiment: Biological activity test: IFN-γ production of PBMCs of BLV-infected cattle to BLV antigen. The following applies: 10 μg/ml antibody, 2% FLK-BLV supernatant, 6 days, n=10.
Experiment [2] relates to BLV-specific T cell proliferation. Kind of experiment: Inoculation test on BLV-infected calf: T cell proliferation response to BLV antigen. The experiment is classed as in vivo, bovine. The following applies: 1 mg/kg i.v. The protocol:
Bovine PBMCs were suspended in PBS and reacted with CFSE at room temperature for 20 min. […] As a control, culture supernatant of 2% BLV-not-infected fetal lamp kidney cells (FLK) was used. After a 6-day culture, PBMCs were collected and reacted with anti-bovine CD4 mouse antibody, anti-bovine CD8 mouse antibody and anti-bovine IgM mouse antibody (Bio-Rad) at 4° C. for 20 min. For the labeling of antibodies. Zenon Mouse IgG1 Labeling Kits (Life Technologies) or Lightning-Link Kit (Innova Biosciences) was used. For analysis, FACS Verse (BD Biosciences) was used. For every washing operation and dilution of antibody, PBS supplemented with 1% bovine serum albumin (Sigma-Aldrich) was used.

B1: ch4G12: rat-bovine chimeric anti-bovine PD-L1 antibody, 4G12 variable regions, mutated bovine IgG1 and Igλ constant regions; SEQ ID NOS: 105 and 106 (protein)
light: MESQTHVLISLLLSVSGTYGDIAITQSPSSVAVSVGETVTLSCKSSQSLLYSENQKDYLGWYQQKPGQTPKPLIYWATNRHTGVPDRFTGSGSGTDFTLIISSVQAEDLADYYCGQYLVYPFTFGPGTKLELKQPKSPPSVTLFPPSTEELNGNKATLVCLISDFYPGSVTVVWKADGSTITRNVETTRASKQSNSKYAASSYLSLTSSDWKSKGSYSCEVTHEGSTVTKTVKPSECS
heavy: MGWSQIILFLVAAATCVHSQVQLQQSGAELVKPGSSVKISCKASGYTFTSNFMHWVKQQPGNGLEWIGWIYPEYGNTKYNQKFDGKATLTADKSSSTAYMQLSSLTSEDSAVYFCASEEAVISLVYWGQGTLVTVSSASTTAPKVYPLSSCCGDKSSSTVTLGCLVSSYMPEPVTVTWNSGALKSGVHTFPAVLQSSGLYSLSSMVTVPGSTSGQTFTCNVAHPASSTKVDKAVDPTCKPSPCDCCPPPPVAGPSVFIFPPKPKDTLTISGTPEVTCVVVDVGHDDPEVKFSWFVDDVEVNTATTKPREEQFNSTYRVVSALRIQHQDWTGGKEFKCKVHNEGLPSSIVRTISRTKGPAREPQVYVLAPPQEELSKSTVSLTCMVTSFYPDYIAVEWQRNGQPESEDKYGTTPPQLDADSSYFLYSKLRVDRNSWQEGDTYTCVVMHEALHNHYTQKSTSKSAGK
modifications: chimeric L chain; chimeric H chain
Regarding B1, the “IFN-γ response of bovine PBMCs to BLV antigen” value in experiment [1] was “increases”. Moreover, the “BLV-specific cell proliferation response of CD4-positive T cells vs before administration” value in experiment [2] is reported as “increased”.

(Values after patent US11312773B2, “Anti-PD-L1 antibody” (Fuso Pharmaceutical Industries, Ltd., priority 2016, dated 2022).)
